Experimental data as given in PMC3102704, “New Classes of Alanine Racemase Inhibitors Identified by High-Throughput Screening Show Antimicrobial Activity against Mycobacterium tuberculosis” (PLoS ONE, 2011).

The compounds below were run on HeLa cells (assay: Compound cytotoxicity, WST-1 Cell Proliferation Reagent). Details: TC50 in HeLa cells / MIC against M. tuberculosis.
Type: cell-based
Method: HeLa cells were grown to confluence overnight (37°C, 5% CO2) in Dulbecco's Modified Eagle Medium with 10% fetal bovine serum (Invitrogen, Carlsbad, CA). The following day, 3000 cells were plated into each well of a 96-well plate and grown overnight. Compounds were diluted in culture medium and added to the cells to yield final concentrations of 100, 50, 25, 12.5, and 6.25 µg/ml. The cells were exposed to the compounds for 48 hours, after which the effect on cells was determined using the WST-1 Cell Proliferation Reagent (Roche Applied Science, Indianapolis, IN) according to manufacturer's protocols. Absorbance at 450 nm was used to calculate percent cytotoxicity with respect to a DMSO solvent control. The results were fitted onto a sigmoidal dose-response curve using Prism software to calculate the TC50 (compound concentration that causes 50% cell death).

| Structure (SMILES) | Ti = TC50/MIC |
| --- | --- |
| CCOC(=O)CCSc1ccccn1 [L2-04, ethyl 3-(pyridin-2-ylthio)propanoate] | 4 |
| CS(=O)(=O)c1ncc(Cl)c(C(=O)NCc2ccccc2)n1 [L2-05, N-benzyl-5-chloro-2-methylsulfonylpyrimidine-4-carboxamide] | 2 |
| COc1ccc(NC(=O)c2nc(S(C)(=O)=O)ncc2Cl)cc1Cl [L2-06, 5-chloro-N-(3-chloro-4-methoxyphenyl)2(methylsulfonyl)pyrimidine-4carboxamide] | 4 |
| COC(=O)c1cccc(C(=O)Oc2ccc(OC(=O)c3cccc(C(=O)OC)n3)c(Cl)c2)n1 [L2-10, 6-O-[3-chloro-4-(6-methoxycarbonylpyridine-2-carbonyl)oxyphenyl]2-O-methyl pyridine-2,6-dicarboxylate] | 12 |
| S=C(Cc1ccccc1)N1CCCCC1 [L2-12, 2-phenyl-1-piperidin-1-ylethanethione] | 14 |
| CCOc1ccc(CCNC(=O)Cn2sc3nc(C)cc(C)c3c2=O)cc1 [L2-13, 2-(4,6-dimethyl-3-oxo-[1], [2]thiazolo[5,4-b]pyridin-2-yl)-N-[2-(4-ethoxyphenyl)ethyl]acetamide] | 2 |
| O=C1Nc2ccccc2C(=O)C1(O)O [L2-16, 3,3-dihydroxy-1H-quinoline-2,4-dione] | 1 |
